PubChem BioAssay AID504761, Drosophila RNAi Screening Center | 2011

- Screen: 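Fly genes whose silencing reduces dengue virus type 2 infection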 (primary screen)
- Cells: D.Mel-2 cells from Drosophila
- Reagent: long dsRNA against Drosophila genes
- Treatment: infection with dengue virus type 2; dose and infection time not stated
- Detection: 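Cells stained for dengue envelope protein and imaged; percent of infected cells per well on duplicate plates, ranked by infection, with stained nuclei counted for cell number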
- Reading the numbers: infection score: higher = more virus-infected cells; cell count: higher = more cells in the well
- Rule for the call: 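Low infection ranks in the two replicates (chance level up to 0.065) followed by a retest with a 1.5-fold or larger significant decrease, p below 0.05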
- Meaning of the calls: active = confirmed: knock-down lowers infection; inactive = not picked or not confirmed
The deposit covers about 22,000 reagents; shown is an unselected part of those with a known target gene and a result. In the full data, 116 (0.52%) got an active call. 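Calls depend on retest data that are not deposited; infection was ranked per plate without normalising between plates; the unit of the infection score is not given.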 The raw values are shown without normalisation. Entries without a mark were called inactive. Reagents against one gene are numbered here. Reagent sequences are not shown. The record does not give: the amount of reagent, the time to read-out.

Snoo (Sno oncogene) #1
- infection score, replicate 1: 3.46
- infection score, replicate 2: 1.14
- cell count, replicate 1: 6423
- cell count, replicate 2: 6465

Snoo (Sno oncogene) #2
- infection score, replicate 1: 4.81
- infection score, replicate 2: 2.05
- cell count, replicate 1: 5847
- cell count, replicate 2: 6396

Cyp6v1 (Cytochrome P450 6v1) #1
- infection score, replicate 1: 2.62
- infection score, replicate 2: 2.57
- cell count, replicate 1: 5695
- cell count, replicate 2: 5593

Cyp6v1 (Cytochrome P450 6v1) #2
- infection score, replicate 2: 19.6
- cell count, replicate 1: 394
- cell count, replicate 2: 5966

CG16894 #1
- infection score, replicate 1: 7.93
- infection score, replicate 2: 2.58
- cell count, replicate 1: 6872
- cell count, replicate 2: 7091

CG16894 #2
- infection score, replicate 1: 15.4
- infection score, replicate 2: 11.4
- cell count, replicate 1: 1103
- cell count, replicate 2: 6829

CG30357
- infection score, replicate 1: 1.36
- infection score, replicate 2: 11.8
- cell count, replicate 1: 7282
- cell count, replicate 2: 5785

The list goes on; the last 2 above are carried over.
CG16894 #2
- infection score, replicate 1: 15.4
- infection score, replicate 2: 11.4
- cell count, replicate 1: 1103
- cell count, replicate 2: 6829

CG30357
- infection score, replicate 1: 1.36
- infection score, replicate 2: 11.8
- cell count, replicate 1: 7282
- cell count, replicate 2: 5785

bw (brown) #1
- infection score, replicate 1: 1.98
- infection score, replicate 2: 3.33
- cell count, replicate 1: 5660
- cell count, replicate 2: 5647

bw (brown) #2
- infection score, replicate 1: 4.87
- infection score, replicate 2: 6.64
- cell count, replicate 1: 6549
- cell count, replicate 2: 5539

Oseg6 (Outer segment 6)
- infection score, replicate 1: 1.42
- infection score, replicate 2: 1.44
- cell count, replicate 1: 6533
- cell count, replicate 2: 6514

Arc1 (Activity-regulated cytoskeleton associated protein 1) #1
- infection score, replicate 1: 2.73
- infection score, replicate 2: 5.14
- cell count, replicate 1: 5240
- cell count, replicate 2: 6951

Arc1 (Activity-regulated cytoskeleton associated protein 1) #2
- infection score, replicate 1: 9.88
- infection score, replicate 2: 7.87
- cell count, replicate 1: 5932
- cell count, replicate 2: 5627
